# Tests used:
# HaCaT cells = experiment: Cytotoxic activity, sulforhodamine B method; settings: IC50 HaCaT (sulforhodamine B) against MIC for M. tuberculosis standard strain
# [1] = tested on: M. tuberculosis H37Rv (standard strain); experiment: Tuberculostatic activity, twofold serial microdilution with Alamar Blue; type: cell-based, Mycobacterium tuberculosis
Compound,SI IC50-HaCaT/MIC-MT SULF (HaCaT cells),"MIC compared with INH, times higher [1]"
"NC(=NNC(=S)N1CCOCC1)c1cccc(N2CCCC2)n1 [Compound 4, N’-(Morpholine-4-Carbonothioyl)-6-(Pyrrolidin-1-Yl)Picolinohydrazonamide]",>3.13,–
"NC(=NNC(=S)N1CCCC1)c1cccc(N2CCCC2)n1 [Compound 5, 6-(Pyrrolidin-1-Yl)-N’-(Pyrrolidine-1-Carbonothioyl)Picolinohydrazonamide]",–,16
"NC(=NNC(=S)N1CCOCC1)c1cccc(N2CCCCC2)n1 [Compound 6, N’-(Morpholine-4-Carbonothioyl)-6-(Piperidin-1-Yl)Picolinohydrazonamide]",>6.25,–
"NC(=NNC(=S)N1CCCC1)c1cccc(N2CCCCC2)n1 [Compound 7, 6-(Piperidin-1-Yl)-N’-(Pyrrolidine-1-Carbonothioyl)Picolinohydrazonamide]",–,16
"NC(=NNC(=S)N1CCOCC1)c1cccc(Oc2ccccc2)n1 [Compound 8, N’-(Morpholine-4-Carbonothioyl)-6-Phenoxypicolinohydrazonamide]",6.25,–
"NC(=NNC(=S)N1CCCC1)c1cccc(Oc2ccccc2)n1 [Compound 9, 6-Phenoxy-N’-(Pyrrolidine-1-Carbonothioyl)Picolinohydrazonamide]",0.16,–

# Reference: article PMC9822072, “Synthesis and Structure–Activity Relationship of 2,6-Disubstituted Thiosemicarbazone Derivatives of Pyridine as Potential Antituberculosis Agents” (Materials, 2023)
